Experimental data taken from patent US6570004B1 (priority 1996, dated 2003).

System: H. pylori strain 60190 and mutants
Assay: Growth of wild type and mutant H. pylori strains on brucella agar in the presence or absence of DAP
Conditions: 1 mM lysine, no DAP

In the case of `NCCCC[C@H](N)C(=O)O`, the “Growth of the dapE− mutant on media supplemented with lysine only” value is reported as “unable to grow”.
